Compound potency records, mixed from different reports. Data source: NIAID ChemDB in PubChem.

Shared fields: enzyme or target tests; species: HIV-1; protein: Reverse transcriptase; measure: fold resistance

Fold resistance has wild type as its base. Neighbouring rows are from separate reports. An empty or dashed field is not shown. Two numbers with a dash give a range or band.

| smiles | changes | read by | value |
|---|---|---|---|
| CCN1c2ncc(CCOc3ccc(CCC(=O)NN)c4ccccc34)cc2C(=O)N(C)c2cccnc21 | RT-V106A | nucleotide incorporation / radiometric | 1–10 |
| COc1ccc(/C=C/NC(=O)Nc2ccc(Cl)cn2)cc1OC | RT-V106A | nucleotide incorporation | 2.86 |
| Cc1c(Sc2ccccc2)n(COCCO)c(=O)[nH]c1=O | RT-H221Y | - | 4 |
| CCN1c2ncc(CCOc3ccc(C(=O)O)c4ccccc34)cc2C(=O)N(C)c2ccc(Cl)nc21 | RT-V106A | nucleotide incorporation / radiometric | 1–10 |
| Nc1nc(=O)n([C@@H]2CC[C@H](COP(=O)(O)OP(=O)(O)OP(=O)(O)O)O2)cc1F | RT-Q151M | nucleotide incorporation / radiometric | 1.18 |
| CCN1c2ncc(CCOc3ccc(C(=O)O)c4ccccc34)cc2C(=O)N(C)c2cccnc21 | RT-K103N Y181C | nucleotide incorporation / radiometric | 1–10 |
| CC(C)=CCN1Cc2cc(Cl)cc3[nH]c(=O)n(c23)C[C@@H]1C | RT-V106A | nucleotide incorporation / radiometric | 12 |
| CCN1c2ncc(CCOc3ccc(C(=O)O)c4c3CCCC4)cc2C(=O)N(C)c2cccnc21 | RT-K103N Y181C | nucleotide incorporation / radiometric | 1–10 |
| Nc1ccn([C@H]2C[C@H](O)[C@@H](COP(=O)(O)OP(=O)(O)OP(=O)(O)O)O2)c(=O)n1 | RT-K65R | nucleotide incorporation / radiometric | 0.76 |
| CC(C)=CCOc1cc(NC(=S)c2ccoc2C)ccc1Cl | RT-V106A | nucleotide incorporation / radiometric | 15 |
| Cc1c(Cc2c(Cl)cccc2Cl)nc(SCc2ccc(O)cc2)[nH]c1=O | RT-181I | nucleotide incorporation / radiometric | ~1 |
| Cc1ccc2c(c1)n(CCNC(=S)Nc1ccc(Br)cn1)c(=O)c1cccn12 | RT-Y188L | nucleotide incorporation | 25 |
| CCOCn1c(Cc2ccccc2)c(C(C)C)c(=O)[nH]c1=O | RT-V106A | nucleotide incorporation / radiometric | 12 |
| Cc1c(Cc2c(Cl)cccc2Cl)nc(S(=O)(=O)Cc2ccc([N+](=O)[O-])cc2)[nH]c1=O | RT-181I | nucleotide incorporation / radiometric | ~1 |
| Cc1cn([C@H]2CC[C@@H](COP(=O)(O)OP(=O)(O)OP(=O)(O)O)O2)c(=O)[nH]c1=O | RT-N137A | nucleotide incorporation / radiometric | 1 |
| COc1ccc(CSc2nc(Cc3c(Cl)cccc3Cl)c(C)c(=O)[nH]2)c(OC)c1 | RT-181I | nucleotide incorporation / radiometric | >16 |
| O=c1c2cccn2c2ccccc2n1CCNC(=S)Nc1ccc(Br)cn1 | RT-K103N | nucleotide incorporation | 1.72 |
| Cc1cc(S(N)(=O)=O)ccc1NC(=O)COc1ccc(Cl)cc1C(=O)c1cc(Cl)cc(C#N)c1 | RT-V108I | fluorescence | 1.11 |
| Cc1c(Cc2c(F)cccc2F)nc(SCc2ccc(C(C)C)cc2)[nH]c1=O | RT-181I | nucleotide incorporation / radiometric | >133 |
| O=c1c2cccn2c2cccc(F)c2n1CCNC(=S)Nc1ccc(Br)cn1 | RT-V106A | nucleotide incorporation | 1.67 |
| Nc1ncnc2c1ncn2[C@H]1CC[C@@H](COP(=O)(O)OP(=O)(O)OP(=O)(O)O)O1 | RT-K65R | nucleotide incorporation / radiometric | 12.63 |
| Cc1cn([C@H]2C=C[C@@H](COP(=O)(O)OP(=O)(O)OP(=O)(O)O)O2)c(=O)[nH]c1=O | RT-V106A | nucleotide incorporation / radiometric | 1.2 |
| O=c1c2cccn2ccn1CCNC(=S)Nc1ccc(Br)cn1 | RT-V106A | nucleotide incorporation | 5.28 |
| Cc1c(Cc2c(Cl)cccc2Cl)nc(SCc2cccc(F)c2)[nH]c1=O | RT-181I | nucleotide incorporation / radiometric | >200 |
| Nc1ncnc2c1ncn2[C@@H]1O[C@H](COP(=O)(O)OP(=O)(O)OP(=O)(O)O)C[C@@H]1F | RT-Q151M | nucleotide incorporation / radiometric | 2.46 |
| O=C1c2cccnc2C(=O)N1CCNC(=S)Nc1ccc(Br)cn1 | RT-Y181I | nucleotide incorporation | 10.5 |

2 of the rows above, restated:

smiles | changes | read by | value
O=c1c2cccn2c2cccc(F)c2n1CCNC(=S)Nc1ccc(Br)cn1 | RT-V106A | nucleotide incorporation | 1.67
CCN1c2ncc(CCOc3ccc(CCC(=O)NN)c4ccccc34)cc2C(=O)N(C)c2cccnc21 | RT-V106A | nucleotide incorporation / radiometric | 1–10